Legend:
[1] = system: target-expressing SKOV3 tumors; settings: mouse, in vivo
[2] = Stability of purified, formulated product at room temperature (HPLC); format: physicochemical; settings: formulated in Dulbecco's phosphate buffered saline pH 6-6.5, room temperature, RCP by HPLC

Substance	Tumor: blood ratio [1]	time found to be stable [2]
Z00477 (SEQ. ID No. 3) His6 (SEQ ID NO: 7)tagged: His6-tagged Z00477 polypeptide labeled with the fac-[99mTc(CO)3]+ core	more than 8	
^67Ga-NOTA Z00477 (SEQ. ID No. 3): Z00477 polypeptide conjugated to Mal-NOTA chelator and labeled with 67Ga		at least 2 hr

Reference: patent US20130295010A1, “HER2 BINDING PEPTIDES LABELLED WITH A 18F - CONTAINING ORGANOSILICON COMPOUND” (priority 2010, published 2013)
